B1: recombinant MmTX1 (rMmTX1) (peptide)
peptide: LTCKTCPFTTCPNSESCPGGQSICYQRKWEEHRGERIERRCVANCPAFGSHDTSLLCCTRDNCN
modifications: not checked
B2: synthetic MmTX1 (sMmTX1) (peptide)
peptide: B1 peptide
modifications: not checked

Experiments:
[1] = target: GABAA receptors of mouse hippocampal neurons (mouse); assay: cell-based or functional assay
[2] = target: T1, α1β2γ2 GABAA receptor (rat), P62813; assay: cell-based or functional assay
T1 chain 1: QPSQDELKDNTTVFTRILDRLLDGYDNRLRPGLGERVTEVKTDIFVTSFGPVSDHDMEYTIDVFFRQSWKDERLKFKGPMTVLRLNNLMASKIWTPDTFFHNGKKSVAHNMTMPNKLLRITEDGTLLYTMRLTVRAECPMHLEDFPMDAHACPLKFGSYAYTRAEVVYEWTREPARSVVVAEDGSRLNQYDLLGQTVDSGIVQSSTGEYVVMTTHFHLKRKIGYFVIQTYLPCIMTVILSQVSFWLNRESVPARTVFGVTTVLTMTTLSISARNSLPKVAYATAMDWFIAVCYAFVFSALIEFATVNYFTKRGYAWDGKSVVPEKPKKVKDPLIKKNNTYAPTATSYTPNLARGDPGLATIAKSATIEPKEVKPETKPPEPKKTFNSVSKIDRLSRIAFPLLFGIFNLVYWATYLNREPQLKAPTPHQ
T1 chain 2: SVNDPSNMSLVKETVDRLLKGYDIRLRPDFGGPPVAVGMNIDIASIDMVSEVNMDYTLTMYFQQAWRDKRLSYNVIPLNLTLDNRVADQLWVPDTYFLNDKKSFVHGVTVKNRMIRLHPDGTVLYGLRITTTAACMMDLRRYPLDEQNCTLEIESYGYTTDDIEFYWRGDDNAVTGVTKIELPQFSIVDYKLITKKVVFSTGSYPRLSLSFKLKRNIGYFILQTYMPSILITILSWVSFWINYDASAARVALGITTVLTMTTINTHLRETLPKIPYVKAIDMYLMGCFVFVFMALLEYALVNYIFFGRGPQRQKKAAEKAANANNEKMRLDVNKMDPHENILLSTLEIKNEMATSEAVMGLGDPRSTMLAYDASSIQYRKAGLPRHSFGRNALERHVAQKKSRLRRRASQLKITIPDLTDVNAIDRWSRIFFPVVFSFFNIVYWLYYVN
T1 chain 3: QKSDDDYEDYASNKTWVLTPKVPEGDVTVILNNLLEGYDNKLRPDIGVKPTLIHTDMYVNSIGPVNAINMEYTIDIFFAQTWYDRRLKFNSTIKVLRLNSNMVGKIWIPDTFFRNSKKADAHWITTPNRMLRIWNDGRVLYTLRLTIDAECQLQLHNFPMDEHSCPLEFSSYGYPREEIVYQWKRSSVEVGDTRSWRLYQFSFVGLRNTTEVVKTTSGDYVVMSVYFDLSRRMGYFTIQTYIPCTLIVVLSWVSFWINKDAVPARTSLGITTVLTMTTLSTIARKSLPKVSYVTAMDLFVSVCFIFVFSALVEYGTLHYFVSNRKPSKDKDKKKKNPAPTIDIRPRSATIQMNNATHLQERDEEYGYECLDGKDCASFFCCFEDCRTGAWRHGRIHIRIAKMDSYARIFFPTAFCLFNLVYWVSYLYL

Binder | Factor of GABAA current increase, 0.1 µM muscimol + 100 nM rMmTX1 [1] [fold] | Factor of GABAA current increase, 0.3 µM muscimol + 100 nM rMmTX1 [1] [fold] | Factor of GABAA current increase, 1.0 µM muscimol + 100 nM rMmTX1 [1] [fold] | Factor of GABAA current increase, 3 µM muscimol + 100 nM rMmTX1 [1] [fold] | Factor of GABAA current increase, 30 µM muscimol + 100 nM rMmTX1 [1] [fold] | Factor of GABAA current increase, 50 µM muscimol + 100 nM rMmTX1 [1] [fold] | inward current with 0.3 µM muscimol applied together with 100 nM rMmTX1 [1] [pA] | factor of current increase, 0.3 µM muscimol + 100 nM sMmTX1, HEK 293 cells [2] [fold] | factor of current increase, 3 µM muscimol + 10 nM sMmTX1, HEK 293 cells [2] [fold] | factor of current increase, 3 µM muscimol + 100 nM sMmTX1, HEK 293 cells [2] [fold] | factor of current increase, 3 µM muscimol + 300 nM sMmTX1, HEK 293 cells [2] [fold]
B1 | 7.9 | 7.5 | 1.9 | 1.4 | 1 | 1 | 439 | – | – | – | –
B2 | – | – | – | – | – | – | – | 2.7 | 1.28 | 1.33 | 1.6

— patent publication US20180009859A1, “PHARMACOLOGICAL MODULATORS OF GABAA RECEPTORS AND THEIR USE” (priority 2015, published 2018)
